A mixed list of measured activities; the numbers were collected in NIAID ChemDB.

ECn: concentration that inhibits the pathogen or its effect by n%. An empty or dashed field is not shown. MIC bound: limit read from a one-dose screen. Inhibition is in % at the dose shown (toxicity tests: loss of growth or viability). A number after MIC or MFC names an inhibition level or a share of isolates. Conditions beyond the fields shown may differ between rows. ICn: concentration for n% inhibition.

SMILES	read by	strain or isolate	protein	test	mutations	measure	organism	cells	dose	result
C#CC[C@@H](C(=O)N[C@H](/C=C/C(=O)OCC)C[C@@H]1CCNC1=O)n1cccc(NC(=O)c2cc(C)on2)c1=O	cytopathic effect / XTT	Serotype 13		culture		inhibition	Rhinovirus	H1-HELA	0.195 µM	90%
C[Si]1(C)O[Si](C)(C)N(N)P(=S)(Oc2ccccc2)N1N	BACTEC	H37Rv		culture		MIC bound	Mycobacterium tuberculosis			≤128 µg/mL
C[C@H](Cc1ccc(O)c(O)c1)[C@@H](C)Cc1ccc(O)c(O)c1	broth dilution	CCC 123-2000		culture		MIC80	Candida kefyr			250 µg/mL
C=CCc1ccc(OC)c(OC)c1	turbidity	2261		culture		MIC90	Candida albicans			350 µg/mL
O=C(/C=C/c1ccccc1)Nc1nnc(NCCSc2ccccc2)s1			Polymerase	target		IC50	Human cytomegalovirus			<25 µM
OCCCCCCCCO		H37Rv		culture		MIC	Mycobacterium tuberculosis			>100 µg/mL
CC(C)=CCC/C(C)=C/CNCCNC1C2CC3CC(C2)CC1C3				culture		MIC	Mycobacterium tuberculosis			6.25 µM
CCOC(c1ccccc1)c1ccccc1		H37Rv		culture		MIC	Mycobacterium tuberculosis			>100 µg/mL
OCc1ccc(-c2cncc(N3CCN(c4ccccn4)CC3)n2)cc1			UL97 kinase	target		IC50	Cytomegalovirus			<10 µM
CC(O)c1ccccc1		H37Rv		culture		MIC	Mycobacterium tuberculosis			100 µg/mL
CC(C)c1ccc2c(c1)CC[C@H]1[C@](C)(CNCCNC3CCCC3)CCC[C@]21C				culture		MIC	Mycobacterium tuberculosis			25 µM
CC(C)c1cc(C(C)C)c(C(=O)Nc2nnc(NCCCn3ccnc3)s2)c(C(C)C)c1			Polymerase	target		IC50	Human cytomegalovirus			<25 µM
OCc1cccc(-c2cncc(N3CCN(c4ccncc4)CC3)n2)c1			UL97 kinase	target		inhibition	Cytomegalovirus		10 µM	>15%
O=C(O)c1ccncc1O		H37Rv		culture		MIC	Mycobacterium tuberculosis			>100 µg/mL
C=CCN1C(=O)CC(=O)N(NC2=NNC3(C(=O)N2)c2ccccc2-c2ccccc23)C1=S	BACTEC	H37Rv		culture		MIC bound	Mycobacterium tuberculosis			>12.5 µg/mL
Clc1ccc(CCNCCNCC(c2ccccc2)c2ccccc2)c(Cl)c1				culture		MIC	Mycobacterium tuberculosis			6.25 µM
c1ccc2c(-c3cncc(N4CCN(c5ccncc5)CC4)n3)csc2c1			UL97 kinase	target		inhibition	Cytomegalovirus		1 µM	<50%
C=CCc1cccc(C(=O)O)c1O		H37Rv		culture		MIC	Mycobacterium tuberculosis			>100 µg/mL
O=C(/C=C/c1ccccc1Cl)Nc1nnc(NC2CCN(Cc3ccccc3)CC2)s1			Polymerase	target		IC50	Human cytomegalovirus			<25 µM
COc1ccc(N2CCN(c3cncc(-c4ccc(C)cc4)n3)CC2)cc1OC			UL97 kinase	target		IC50	Cytomegalovirus			<10 µM
CCOC(=O)c1c(C)oc(=O)c(CC)c1O	BACTEC	H37Rv		culture		MIC bound	Mycobacterium tuberculosis			>12.5 µg/mL
c1ccc(C2CCN(c3cncc(-c4ccc5ccccc5c4)n3)CC2)cc1			UL97 kinase	target		inhibition	Cytomegalovirus		1 µM	<50%
O=C(O)c1ccccc1C(=O)C(=O)c1ccccc1C(=O)O		H37Rv		culture		MIC	Mycobacterium tuberculosis			>100 µg/mL
CCN(CC)CCn1c2ccccc2c2cc3cnccc3c(C)c21	resazurin	H37Rv		culture		inhibition	Mycobacterium tuberculosis		6.25 µg/mL	99%
COc1ccc(-c2cncc(NCCc3cccnc3)n2)cc1			UL97 kinase	target		IC50	Cytomegalovirus			<1 µM
CCCCN(C)CCNc1cc(C)nc(Nc2nc3ccc(Cl)cc3[nH]2)n1	BACTEC	H37Rv		culture		MIC	Mycobacterium tuberculosis			6.25 µg/mL
COc1ccccc1Oc1ccnc(N)n1		H37Rv		culture		MIC	Mycobacterium tuberculosis			>100 µg/mL
CCO/N=C/c1ccc(OCCC2CCN(c3ccc(C)nn3)CC2)cc1	neutral red	204-CV14 (ICAM-1 receptor group 10)		culture		EC50	Rhinovirus	KB		0.082 µM
COc1ccc2c(c1)n([O-])c1ccccc1[n+]2=O		TAC-R		culture		MIC	Mycobacterium tuberculosis			0.8 µg/mL
Fc1ccc(N2CCCCC2)c(NC(=S)c2ccncc2)c1	kinase activity		Rsk3	host protein		inhibition			10 µM	39%
O=C(/C=C/c1ccccc1Cl)Nc1nnc(NC2CCCCCC2)s1			Polymerase	target		IC50	Human cytomegalovirus			>25 µM
NC(=O)CS		H37Rv		culture		MIC	Mycobacterium tuberculosis			25 µg/mL
O=C(NNC(=O)c1cccc([N+](=O)[O-])c1)c1cccc([N+](=O)[O-])c1	resazurin	H37Rv		culture		MIC bound	Mycobacterium tuberculosis			>6.25 µg/mL
NC(=O)c1cccnc1		H37Rv		culture		MIC	Mycobacterium tuberculosis			>1000 µg/mL
CC(=O)NS(=O)(=O)c1ccc(N=NC2C(=O)N(C(=O)c3ccncc3)N=C2C)cc1	BACTEC	H37Rv		culture		inhibition	Mycobacterium tuberculosis		12.8 µg/mL	18%
CC(=O)N[C@H]1[C@H]([C@H](O)[C@H](O)CO)OC(C(=O)O)=C[C@@H]1N=C(N)N		Influenza A/Sydney/05/97 (H3N2)		culture		EC50	Influenza A virus	MDCK		0.45 µM
COc1cc(NC(C)=O)c([N+](=O)[O-])cc1OC		H37Rv		culture		MIC	Mycobacterium tuberculosis			>100 µg/mL
O=C(Nc1nnc(NCCCN2CCCC2=O)s1)c1cc(F)cc(F)c1			Polymerase	target		IC50	Human cytomegalovirus			>25 µM
CCCCCNCCNC[C@]1(C)CCC[C@]2(C)c3ccc(C(C)C)cc3CC[C@@H]12				culture		MIC	Mycobacterium tuberculosis			50 µM
C/C=C/C1=C(Cl)C(=O)[C@H](Cl)[C@]1(O)C(=O)OC	BACTEC	H37Rv		culture		MIC bound	Mycobacterium tuberculosis			>12.8 µg/mL
O=C1c2c(O)ccc(Cl)c2C(=O)c2c(O)ccc(Cl)c21		H37Rv		culture		MIC	Mycobacterium tuberculosis			>100 µg/mL
C[n+]1ccc(Nc2ccc(NC(=O)c3ccc(Nc4cc[n+](C)c5ccc([N+](=O)[O-])cc45)cc3[N+](=O)[O-])cc2)cc1	resazurin	H37Rv		culture		MIC	Mycobacterium tuberculosis			0.78 µg/mL
COc1cc(-c2cncc(N3CCN(c4cccc5[nH]ccc45)CC3)n2)cc(OC)c1OC			UL97 kinase	target		inhibition	Cytomegalovirus		10 µM	>15%
COc1ccc(OC)c(NC(=O)C(=O)Nn2c(=S)[nH]c3ccccc3c2=O)c1	BACTEC	H37Rv		culture		inhibition	Mycobacterium tuberculosis		12.5 µg/mL	-6%
Cn1c(=O)c(C(=O)[O-])c2c3c(cccc31)C(=O)c1ccccc1-2.[Na+]		H37Rv		culture		MIC	Mycobacterium tuberculosis			100 µg/mL
O=C1CSC(c2ccc([N+](=O)[O-])cc2)N1c1nncs1	BACTEC	H37Rv		culture		MIC bound	Mycobacterium tuberculosis			>12.5 µg/mL
CCCCCCCCCCCNc1nnc(NC(=O)c2cccc([N+](=O)[O-])c2)s1			Polymerase	target		IC50	Human cytomegalovirus			<25 µM
COc1ccc(-c2n[nH]c3nc4ccccc4n3c2=O)cc1	resazurin	H37Rv		culture		inhibition	Mycobacterium tuberculosis		6.25 µg/mL	2%
Cc1ccccc1-c1cncc(N2CCN(c3ccncc3)CC2)n1			UL97 kinase	target		IC50	Cytomegalovirus			<100 µM
c1cc[n+](CCCCC[n+]2ccccc2)cc1		H37Rv		culture		MIC	Mycobacterium tuberculosis			100 µg/mL
NC(=S)N=Nc1c(O)n(O)c2ccccc12	BACTEC	H37Rv		culture		MIC	Mycobacterium tuberculosis			≥12.8 µg/mL
FC(F)(F)Oc1ccc(CNCCNC2CCCCCCC2)cc1				culture		MIC	Mycobacterium tuberculosis			50 µM
CCOCC(=O)OCC		H37Rv		culture		MIC	Mycobacterium tuberculosis			>100 µg/mL
CC(C)c1ccc2c(c1)CC[C@H]1[C@](C)(CNCCNCCc3ccc(O)cc3)CCC[C@]21C				culture		MIC	Mycobacterium tuberculosis			25 µM
c1ccc2c(c1)oc1cc3c(cc12)n1nnnc1c1cccn31	BACTEC	H37Rv		culture		MIC bound	Mycobacterium tuberculosis			>12.5 µg/mL
CCCCC(CC)CN1CN(CC(CC)CCCC)CC(C)(NCCNCc2ccc(C)cc2)C1				culture		MIC	Mycobacterium tuberculosis			25 µM
Cc1cc(O)ccc1NCc1ccccc1.Cl		H37Rv		culture		MIC	Mycobacterium tuberculosis			50 µg/mL
CC(CNCCNC(C)(C)CO)c1ccccc1				culture		MIC	Mycobacterium tuberculosis			50 µM
CC(C)c1cc(C(C)C)c(C(=O)Nc2nnc(NCCCCc3ccccc3)s2)c(C(C)C)c1			Polymerase	target		IC50	Human cytomegalovirus			>25 µM
CC(C)=CCN1Cc2cc(Cl)cc3[nH]c(=S)n(c23)C[C@@H]1C				culture	RT-M41L T215Y L100I	EC95	HIV-1	MT-4		>3 µM
CC1(C)Cc2[nH]c3ccccc3c(=O)c2-c2nc3ccccc3c(=O)n21	BACTEC	H37Rv		culture		MIC	Mycobacterium tuberculosis			≥12.5 µg/mL
CCOc1ccc(NC(=O)c2cc3ccccc3cc2O)cc1		H37Rv		culture		MIC	Mycobacterium tuberculosis			25 µg/mL
O=C1C=C([C@@H]2O[C@H](CO)[C@@H](O)[C@H]2O)C(=O)N1	BACTEC	H37Rv		culture		MIC	Mycobacterium tuberculosis			≥12.8 µg/mL
O=C(Nc1nnc(NCCc2c[nH]c3ccccc23)s1)c1cc(F)cc(F)c1			Polymerase	target		IC50	Human cytomegalovirus			>25 µM
CCN=C(N)c1ccc([N+](=O)[O-])cc1O		H37Rv		culture		MIC	Mycobacterium tuberculosis			>100 µg/mL
COC(=O)NC12CC3CC(C(C)O1)C2N(Cc1ccccc1)C3	BACTEC	H37Rv		culture		MIC bound	Mycobacterium tuberculosis			>12.5 µg/mL
O=C(Nc1nnc(NCCc2cccs2)s1)c1cc2ccccc2s1			Polymerase	target		IC50	Human cytomegalovirus			>25 µM
Nc1ncccn1		H37Rv		culture		MIC	Mycobacterium tuberculosis			>100 µg/mL
CN(C)[C@@H]1C(=O)C(C(=O)NCNC(CO)(CO)CO)=C(O)[C@@]2(O)C(=O)C3=C(O)c4c(O)cccc4[C@@](C)(O)[C@H]3C[C@@H]12.Cl	BACTEC	H37Rv		culture		inhibition	Mycobacterium tuberculosis		12.5 µg/mL	5%
O=C(O)CCCCCCCC(O)C(O)CCCCCCO		H37Rv		culture		MIC	Mycobacterium tuberculosis			>100 µg/mL
CSCSCC(CO)NC(=O)/C=C/c1c(C)[nH]c(=O)[nH]c1=O	BACTEC	H37Rv		culture		inhibition	Mycobacterium tuberculosis		12.5 µg/mL	28%
O=C(O)c1ccccc1		H37Rv		culture		MIC	Mycobacterium tuberculosis			>100 µg/mL
CCCCC(CC)CN1CN(CC(CC)CCCC)CC(C)(NCCNCCC)C1				culture		MIC	Mycobacterium tuberculosis			6.25 µM

6 of the rows above, restated:

SMILES,read by,strain or isolate,protein,test,mutations,measure,organism,cells,dose,result
COc1ccc2c(c1)n([O-])c1ccccc1[n+]2=O,,TAC-R,,culture,,MIC,Mycobacterium tuberculosis,,,0.8 µg/mL
c1ccc2c(-c3cncc(N4CCN(c5ccncc5)CC4)n3)csc2c1,,,UL97 kinase,target,,inhibition,Cytomegalovirus,,1 µM,<50%
O=C(O)CCCCCCCC(O)C(O)CCCCCCO,,H37Rv,,culture,,MIC,Mycobacterium tuberculosis,,,>100 µg/mL
O=C(/C=C/c1ccccc1Cl)Nc1nnc(NC2CCN(Cc3ccccc3)CC2)s1,,,Polymerase,target,,IC50,Human cytomegalovirus,,,<25 µM
CC(C)=CCC/C(C)=C/CNCCNC1C2CC3CC(C2)CC1C3,,,,culture,,MIC,Mycobacterium tuberculosis,,,6.25 µM
CCOc1ccc(NC(=O)c2cc3ccccc3cc2O)cc1,,H37Rv,,culture,,MIC,Mycobacterium tuberculosis,,,25 µg/mL